From publication PMC5309245, “Discovery and Characterization of Diazenylaryl Sulfonic Acids as Inhibitors of Viral and Bacterial Neuraminidases” (Frontiers in Microbiology, 2017)

What was measured:
[1] = tested on: human erythrocytes; format: cell-based; conditions: 2 h at 4°C
Method: (§1) Viral (whole virus) and bacterial NA activity as well as their inhibition were measured by using a fluorescence (FL) assay with the substrate 2′-(4-methylumbelliferyl)-α-D-N-acetylneuraminic acid sodium salt hydrate (MUNANA, 100 μM; Sigma-Aldrich GmbH, Taufkirchen, Germany), and/or a hemagglutination (HA)-based NA inhibition assay (HA assay) with human erythrocytes (Institute of Transfusion Medicine, University Hospital Jena, Jena, Germany), both assays as published recently (Richter et al., [2015]). Recombinant NanA (rNanA) and total precipitated bacterial protein of S. pneumoniae DSM20566 were used in FL and HA assays. Interference of the compounds with the FL signal (self-fluorescence and quenching) was excluded as described previously (Richter et al., [2015]). […] Each compound was tested at least three times in both NA inhibition assays.
Supplementary Table 1. Assay interference phenomena of test compounds in the HA-based […]
sample concentrations [µM] in viral HA-assay bacterial HA-assay […]
hem- prevention of erythrocyte hem- erythrocyte agglutinationa virus-induced lysisc agglutinationd lysise […]
cTest compounds lysed the human erythrocytes (2 h at 4°C). […]

[2] = tested on: human erythrocytes; format: cell-based; conditions: human erythrocytes in the presence of lectin, 24 h, 4°C
Method: as §1
Supplementary Table 1. […]
eTest compounds lysed the human erythrocytes (4 h at 37°C and 12 h at 4°C).

Row | Compound | sample concentrations provoking hemagglutination, viral HA-assay [1] | sample concentrations provoking prevention of virus-induced hemagglutination, viral HA-assay [1] | sample concentrations provoking hemagglutination, bacterial HA-assay [2]
1 | COc1cc(/N=N/c2ccc(S(=O)(=O)O)cc2)ccc1/N=N/c1c(O)ccc2cc(S(=O)(=O)O)ccc12 [Compound 8] | no | no | no
2 | O=S(=O)(O)c1ccc2c(/N=N/c3ccc(/N=N/c4ccccc4)cc3)c(O)ccc2c1 [Compound 3] | 3.16 to 100 µM | no | 31.6 to 100 µM
3 | COc1cc(/N=N/c2ccc(S(=O)(=O)O)cc2)ccc1/N=N/c1c(O)ccc2ccccc12 [Compound 7] | 1 to 100 µM | no | no
4 | O=S(=O)(O)c1cc2cccc(S(=O)(=O)O)c2c(O)c1/N=N/c1ccccc1 [Compound 17] | no | no | no
5 | O=S(=O)(O)c1cc(S(=O)(=O)O)c2c(/N=N/c3cccc4ccccc34)c(O)ccc2c1 [Compound 16] | no | no | no
6 | Cc1ccccc1/N=N/c1ccc(/N=N/c2c(O)ccc3cc(S(=O)(=O)O)cc(S(=O)(=O)O)c23)c(C)c1 [Compound 5] | no |  | no
7 | O=S(=O)(O)c1ccc2c(/N=N/c3ccc(Sc4ccc(/N=N/c5c(O)ccc6cc(S(=O)(=O)O)ccc56)cc4)cc3)c(O)ccc2c1 [Compound 2] | no |  | no
8 | O=[N+]([O-])c1cccc(/N=N/c2c(O)c(S(=O)(=O)O)cc3cc(S(=O)(=O)O)ccc23)c1 [Compound 13] | no | no | no
9 | O=S(=O)(O)c1ccc2c(/N=N/c3c(O)ccc4ccccc34)cccc2c1 [Compound 14] | 31.6 to 100 µM | no | no
10 | O=S(=O)(O)c1cc(/N=N/c2c(O)ccc3ccccc23)c2c(S(=O)(=O)O)cccc2c1 [Compound 15] | 100 or no | no | no
11 | Cc1cc(N=Nc2ccc(N=Nc3c(O)c(S(=O)(=O)O)cc4cc(S(=O)(=O)O)ccc34)cc2C)ccc1N=Nc1ccc2cc(S(=O)(=O)O)cc(S(=O)(=O)O)c2c1 [Compound 1, 7-[2-[4-[2-[4-[2-(2-hydroxy-3,6-disulfo-1-naphthalenyl)diazenyl]-2-methylphenyl]diazenyl]-2-methylphenyl]diazenyl]-1,3-naphthalenedisulfonic acid] | no | no | no
12 | O=S(=O)(O)c1ccc(/N=N/c2ccc(/N=N/c3ccc(O)c4ccccc34)cc2)cc1 [Compound 6] | 100 or no | no | no
13 | O=[N+]([O-])c1ccc(/N=N/c2c(O)c(S(=O)(=O)O)cc3cc(S(=O)(=O)O)ccc23)cc1 [Compound 12] | no | no | no
14 | O=S(=O)(O)c1ccc2c(/N=N/c3ccccc3)c(O)ccc2c1 [Compound 10] | 100 or no | no | no
15 | O=S(=O)(O)c1ccc(/N=N/c2ccc(/N=N/c3c(O)c(S(=O)(=O)O)cc4cc(S(=O)(=O)O)ccc34)cc2)cc1 [Compound 9] | no | no | no
16 | O=[N+]([O-])c1ccc(/N=N/c2c(O)ccc3cc(S(=O)(=O)O)ccc23)cc1 [Compound 11] | no | no | no
17 | Cc1ccccc1/N=N/c1ccc(/N=N/c2c(O)ccc3cc(S(=O)(=O)O)ccc23)c(C)c1 [Compound 4] | 1 to 100 µM | no | no
